We go through 64 compounds from PubChem BioAssay AID602233 (National Center for Advancing Translational Sciences (NCATS), 2012).

The entries are a selection whose mix differs from that of the whole data set. Some salts or complexes appear as unconnected parts, following the source record. Activity calls are given as the source filed them. The call rests on the fitted dose curve; in most records, active means well fitted inhibition curve with a large enough effect; inconclusive means small, poorly fitted or top-dose-only effect; inactive means no such curve, though single readings can be large or run the other way.
On the % scale 0 is the no-effect control and ±100 the full control effect.

For this test, the target named is Phosphoglycerate kinase, glycosomal (Trypanosoma brucei brucei) (UniProt P07378). As to the kind of experiment: qHTS Assay to Find Inhibitors of Phosphoglycerate Kinase. Further: nearly all actives have a fitted effect of over 60% in size. As to conditions: PGK/GAPDH coupled, Kinase-Glo luminescence, 60 min; activity change, negative = inhibition: at 57.5 µM (top of the series). The text has this:
Several species of the Trypanosomatidae family of parasitic protozoans cause a spectrum of diseases throughout the tropical and subtropical world. Sleeping sickness, caused by two subspecies of Trypanosoma brucei, is endemic to areas of sub-Saharan Africa, while Chagas disease, a manifestation of Trypanosoma cruzi infection, is prevalent throughout Central and South America. In addition, many species of Leishmania are responsible for a range of cutaneous and visceral diseases, causing ulcers, destructive lesions and kalaazar, a lethal infection of the viscera. Collectively, these organisms infect 30 million people worldwide (~500 million live in endemic areas), and account for ~130,000 deaths annually. Given their debilitating and prevalent nature, trypanosomatid parasites impose a heavy medical, economic and social burden on entire populations, primarily in the developing world. The problem is further exacerbated by the fact that existing treatments have progressed little in the past 50 years, and current drugs show high toxicity and poor efficacy. […] Blood-stream stages of T. brucei are entirely dependent on glycolysis as a source of ATP, and the tricarboxylic acid cycle and oxidative phosphorylation are both repressed. Glycolysis in axenically cultured T. cruzi, representing the intracellular pathogenic stage, is also essential for these parasites. […] Previous studies have shown that the glycolytic enzyme, phosphoglycerate kinase (PGK), is a viable target for drugs to kill these parasites. […] NIH Molecular Libraries Probe Production Network [MLPCN] NIH Chemical Genomics Center [NCGC] MLPCN Grant: R03 MH093212 PI Name: Malcolm Walkinshaw, University of Edinburgh
3ul of substrate/PGK buffer (columns 1,2,5-48) are dispensed into Greiner white solid bottom 1536-well assay plates; columns 3-4 receive only TEA buffer as 0x PGK controls. Compounds are then transferred via Kalypsys pin tool equipped with 1536-pin array (10nl slotted pins, V&P Scientific, San Diego, CA). Following addition of compound, 1ul of GAPDH (100nM final concentration, all columns) is added to initiate the reaction (this upstream coupling enzyme is necessary for in-well production of PGK substrate, 1,3-bisphosphoglycerate (1,3-BPG), which is unstable and not commercially available). The plates are then incubated at room temperature for 60 minutes. Kinase-Glo Plus reagent is added (2ul) and plates incubated for 10 minutes, before being transferred to a ViewLux high-throughput CCD imager (PerkinElmer) wherein single end-point measurements of luminescence are acquired using a clear filter. All reagents are diluted in an assay buffer consisting of 100mM TEA (pH 7.6), 5mM MgCl2 and 0.01% Tween-20.
Background: In qHTS, concentration-response curves come from the screen itself.
Regarding `CCN1CCC(Nc2cccc(F)c2)CC1`, the activity change, negative = inhibition was inactive: -5.89%.

Turning to `Cc1ccccc1NC1(C#N)CCN(Cc2ccccc2)CC1`, the activity change, negative = inhibition is inactive: -7.36%.

For `Cn1c(=O)[nH]cc(N(CCCl)CCCl)c1=O`, the activity change, negative = inhibition is inactive: 3.66%.

`CN(C)c1ccc(C(=O)NCC2(N3CCCCC3)CCCCC2)cc1`: the activity change, negative = inhibition is inactive: 2.51%.

Turning to `CC(C)(C)c1ccc(C(=O)NCC2(N3CCOCC3)CCCCC2)cc1`, the activity change, negative = inhibition was inactive: -0.0533%.

As for `O=C(NCC1(N2CCCCC2)CCCCC1)c1ccco1`, the activity change, negative = inhibition is inactive: -8.49%.

On to `Cc1ccccc1C(=O)NCC1(N(C)C)CCCCC1`, for which the activity change, negative = inhibition entry is “inactive”.

As for `COc1cc(OC)cc(C(=O)NCC2(N3CCCCC3)CCCCC2)c1`, the activity change, negative = inhibition is inactive: -1.39%.

As for `CC(=O)N(c1ccccc1)C1CCNCC1`, the activity change, negative = inhibition was inactive: 1.32%.

Take `CN(C)C1(CNC(=O)c2ccc(C(C)(C)C)cc2)CCCCC1`: the activity change, negative = inhibition result is “inactive”.

With `Cc1ccc(NC2(C#N)CCN(Cc3ccccc3)CC2)cc1`, the activity change, negative = inhibition was inactive: -8.56%.

For `Cc1ccc(Nc2c([N+](=O)[O-])cc([N+](=O)[O-])cc2[N+](=O)[O-])cc1`, the activity change, negative = inhibition was inactive: -9.97%.

For `Fc1ccccc1NC1CCN(Cc2ccccc2)CC1`, the activity change, negative = inhibition was inactive: 4.95%.

Take `Cc1ccc(C(=O)NCC2(N3CCCCC3)CCCCC2)o1`: the activity change, negative = inhibition was inactive: 4.43%.

With `CCC(CO)(C(=O)OC1CN2CCC1CC2)c1ccccc1` (centres undefined), the activity change, negative = inhibition is inactive: -4.22%.

As for `COc1cccc(C(=O)N(c2cc(C)cc(C)c2)C2CCN(C(=O)OC(C)(C)C)CC2)c1`, the activity change, negative = inhibition was inactive: -16.4%.

Take `COc1cc(OC)cc(C(=O)NCC2(N3CCOCC3)CCCCC2)c1`: the activity change, negative = inhibition is inactive: 7.99%.

For `COc1cc(C(=O)NCC2(N3CCOCC3)CCCCC2)cc(OC)c1OC`, the activity change, negative = inhibition is inactive: 8.72%.

In the case of `CN1CCC(Nc2ccc(Cl)cc2)CC1`, the activity change, negative = inhibition was inactive: -0.816%.

Turning to `CN1CCC(Nc2ccc(F)c(Cl)c2)CC1`, the activity change, negative = inhibition is inactive: -4.31%.

As for `CCOc1ncccc1C(=O)NCC1(N2CCOCC2)CCCCC1`, the activity change, negative = inhibition entry is “inactive”.

On to `CCCOc1ccc(C(=O)NCC2(N(C)C)CCCCC2)cc1`, for which the activity change, negative = inhibition is inactive: 7.44%.

In the case of `O=C(O)C1(Nc2ccccc2)CCN(Cc2ccccc2)CC1`, the activity change, negative = inhibition entry is “inactive”.

Turning to `CC(C)(C)OC(=O)N1CCC(Nc2ccccc2)CC1`, the activity change, negative = inhibition is inactive: -9.73%.

Regarding `N/C(=N\O)c1c(N)no[n+]1[O-]`, the activity change, negative = inhibition was inactive: -1.83%.

Regarding `CCOC(=O)N1CCC(Nc2ccc(C)cc2)CC1`, the activity change, negative = inhibition is inactive: 4.27%.

For `O=C(O)c1cccc(Nc2c([N+](=O)[O-])cc([N+](=O)[O-])cc2[N+](=O)[O-])c1`, the activity change, negative = inhibition was inactive: -16.3%.

On to `O=C(OC1CN2CCC1CC2)C1c2ccccc2C=Cc2ccccc21` (centres undefined), for which the activity change, negative = inhibition is inactive: -6.01%.

Consider `CCc1cc(C(=O)NCC2(N3CCCCC3)CCCCC2)sc1C`, for which the activity change, negative = inhibition was inactive: -1.55%.

As to `O=C(NCC1(N2CCOCC2)CCCCC1)c1cc(Br)ccc1Cl`, the activity change, negative = inhibition entry is “inactive”.

On to `COc1cc(C(=O)NCC2(N3CCOCC3)CCCCC2)cc(OC)c1C`, for which the activity change, negative = inhibition is inactive: -7.89%.

With `COc1ccc(C(=O)NCC2(N3CCOCC3)CCCCC2)cc1OC`, the activity change, negative = inhibition was inactive: 5.9%.

Regarding `O=C(NCC1(N2CCOCC2)CCCCC1)c1ccccc1`, the activity change, negative = inhibition is inactive: -2.25%.

Take `Cc1cc(N(CCCl)CCCl)ccc1C=O`: the activity change, negative = inhibition is inactive: -3.13%.

`CCCN1CCC(Nc2cc(OC)cc(OC)c2)CC1`: the activity change, negative = inhibition was inactive: 4.21%.

Take `c1ccc(CN2CCC(Nc3ccccc3)CC2)cc1`: the activity change, negative = inhibition is inactive: 1.64%.

As to `CN(C)C1(CNC(=O)c2cccc(C#N)c2)CCCCC1`, the activity change, negative = inhibition is inactive: 3.47%.

Turning to `CC(C)(C)OC(=O)N1CCC(N(C(=O)c2ccccc2)c2ccc(Cl)cc2)CC1`, the activity change, negative = inhibition entry was “inactive”.

Take `O=C(NCC1(N2CCOCC2)CCCCC1)c1ccc([N+](=O)[O-])cc1`: the activity change, negative = inhibition was inactive: 2.65%.

Take `O=C(NCC1(N2CCOCC2)CCCCC1)c1ccccc1[N+](=O)[O-]`: the activity change, negative = inhibition entry was “inactive”.

As for `N#Cc1ccc(C(=O)NCC2(N3CCCCC3)CCCCC2)cc1`, the activity change, negative = inhibition was inactive: -7.31%.

For `CCOC(=O)C(CC)C1=NC(C)(C)Cc2ccccc21.O=[N+]([O-])c1cc([N+](=O)[O-])c(O)c([N+](=O)[O-])c1` (centres undefined), the activity change, negative = inhibition was inactive: -0.235%.

Consider `O=C(NCC1(N2CCCCC2)CCCCC1)c1cccc(C(F)(F)F)c1`, for which the activity change, negative = inhibition is inactive: -3.21%.

`CCCOc1cccc(C(=O)NCC2(N3CCOCC3)CCCCC2)c1`: the activity change, negative = inhibition result was “inactive”.

As to `O=[N+]([O-])c1cc([N+](=O)[O-])c(NCC2CCS(=O)(=O)C2)c([N+](=O)[O-])c1` (centres undefined), the activity change, negative = inhibition was inactive: 2.04%.

Consider `CC(C)c1ccc(C(=O)NCC2(N3CCOCC3)CCCCC2)cc1`, for which the activity change, negative = inhibition was inactive: -4.14%.

On to `COc1ccc(NC2CCN(C(=O)OC(C)(C)C)CC2)cc1`, for which the activity change, negative = inhibition entry was “inactive”.

Turning to `CN1CCN(CCOC(=O)C(O)(c2ccccc2)c2ccccc2)CC1`, the activity change, negative = inhibition entry was “inactive”.

With `O=C(NCC1(N2CCOCC2)CCCCC1)c1cc(=O)[nH]c2ccccc12`, the activity change, negative = inhibition is inactive: -0.959%.

`COc1cc(C(=O)NCC2(N3CCCCC3)CCCCC2)ccc1OC(F)F`: the activity change, negative = inhibition was inactive: 6.85%.

As to `O=C(NCC1(N2CCCCC2)CCCCC1)c1ccc(OC(F)F)cc1`, the activity change, negative = inhibition is inactive: -6.73%.

Regarding `CCOc1ccc(C(=O)NCC2(N3CCOCC3)CCCCC2)cc1`, the activity change, negative = inhibition is inactive: -4.84%.

Take `O=C(NCC1(N2CCCCC2)CCCCC1)c1cccc([N+](=O)[O-])c1`: the activity change, negative = inhibition was inactive: 0.0313%.

For the compound `CSc1ccc(C(=O)NCC2(N3CCOCC3)CCCCC2)cc1`, the activity change, negative = inhibition is inactive: -1.52%.

With `N#CC1(Nc2ccccc2)CCN(CCc2ccccc2)CC1`, the activity change, negative = inhibition was inactive: 9.82%.

In the case of `CCN1CCC(Nc2ccc(Cl)cc2)CC1`, the activity change, negative = inhibition was inactive: 1.97%.

On to `COc1ccc2c(c1O)-c1c(O)c(OC)cc3c1[C@H](C2)[N+](C)(C)CC3.O=[N+]([O-])c1cc([N+](=O)[O-])c([O-])c([N+](=O)[O-])c1[O-]`, for which the activity change, negative = inhibition was inactive: -13.3%.

For `O=C(NCC1(N2CCCCC2)CCCCC1)c1cncc(Br)c1`, the activity change, negative = inhibition is inactive: -2.9%.

Turning to `CN1CCC(Nc2cccc(F)c2)CC1`, the activity change, negative = inhibition was inactive: -1.13%.

With `O=C(OC1CN2CCC1CC2)c1ccc([N+](=O)[O-])cc1` (centres undefined), the activity change, negative = inhibition is inactive: -1.07%.

Turning to `CCCOc1ccc(C(=O)NCC2(N(C)C)CCCCC2)cc1OC`, the activity change, negative = inhibition entry is “inactive”.

On to `O=C(NCC1(N2CCOCC2)CCCCC1)c1ccccc1Br`, for which the activity change, negative = inhibition was inactive: 0.137%.

Turning to `Cc1ccc(C(=O)NCC2(N(C)C)CCCCC2)o1`, the activity change, negative = inhibition is inactive: -7.74%.

As for `CCCCOc1ccccc1C(=O)NCC1(N2CCOCC2)CCCCC1`, the activity change, negative = inhibition was inactive: -3.4%.
